Experimental data published in PMC9296231.
pEC50, pKd: −log10 of the molar value.

Tests used:
[1] = molecular target: SARS2 S trimer Omicron BA.2 (SARS-CoV-2) (UniProt P0DTC2); experiment: ELISA; conditions: bispecific antibody
[2] = molecular target: SARS2 S trimer Omicron BA.2 (SARS-CoV-2) (UniProt P0DTC2); experiment: BLI; conditions: bispecific antibody

F6-ab8-Fc (from UniProt P01857)
pEC50 [1]: 7.84 | pKd [2]: 8.21
